Target: T1, SARS-CoV-2 Spike receptor binding domain, wild-type (SARS-CoV-2, UniProt P0DTC2 319-541)
T1 construct: domain: RBD
Assay: Octet, IgG1 on AHC biosensor

B1: N-612-041 (antibody, V domains shown)
VH: EVQLVESGGGLVQPGGSLRLSCAASGFTFSSYTMHWVRQAPGKGLEWVSAISGSGGYTYYADSVKGRFTISRDNSKNTLYLQMNSLRAEDTAVYYCARDRDLLWMGWAFDVWGQGTLVTVSS
VL: DIQMTQSPSSLSASVGDRVTITCQASQDISNYLNWYQQKPGKAPKLLIYDASNLETGVPSRFSGSGSGTDFTFTISSLQPEDIATYYCQQYANWPLTFGQGTKVEIK
  binding result: no binding (tested: 2x dilution series starting at 100 nM)

Source: US20230218743A1 (IMMUNITYBIO, published 2023)
